System: Streptococcus agalactiae
Assay: Detection of Streptococcus agalactiae strains on reaction media containing an α-glucosidase enzymatic substrate
Format: cell-based
Parameters: key: T=turquoise; R=pink or red; Gr=green; Mg=magenta
Conditions: substrate 0.1 g/l
Method: The reaction media were prepared by mixing heart-brain extract (4.84 g/l; Solabia), meat infusion (1.96 g/l; Solabia), biothione (1 g/l; Solabia), biotrypcase (7.2 g/l; Solabia), sodium carbonate (0.3 g/l; VWR), sodium pyruvate (2 g/l; Fluka), HEPES buffer (0.4 g/l; Sigma), lactalbumin peptone (2 g/l; DMV), glucose (1 g/l; Merck), American agar (2 g/l; Sobigel) and European agar (12 g/l; Roko).
The media were then poured into a Petri dish for subsequent inoculation with bacterial strains.
Eight Streptococcus agalactiae strains derived from the applicant's collection, suspended in physiological saline, were inoculated so as to give isolated colonies on each of the media. The dishes were then incubated at 37° C. for 48 hours. The colonies formed are examined visually after 18, 24 and more than 40 hours of incubation. The coloration of these colonies, the growth and also the intensity of this coloration were noted.
The results are given in table 1 below and are expressed: • in terms of growth (G) with the size being indicated in mm, • in terms of intensity (1) of coloration based on an arbitrary scale ranging from 0 to 4, 0 corresponding to an absence of activity and 4 corresponding to the presence of a very intense coloration, • in terms of color (Co) with T=turquoise, R=pink or red, Gr=green, Mg=magenta, • according to the incubation time in hours (T).

Measured: color (Co)

OC[C@H]1O[C@H](Oc2c[nH]c3cc(Br)ccc23)[C@H](O)[C@@H](O)[C@@H]1O [RedA-alpha-Glu, 6-bromo-3-indolyl-α-D-glucopyranoside]
R: strain 0008200, 18 h | strain 0008200, 24 h | strain 0008200, >40 h | strain 0008206, 18 h | strain 0008206, 24 h | strain 0008206, >40 h | strain 0101060, 18 h | strain 0101060, 24 h | strain 0101060, >40 h | strain 7611003, 18 h | strain 7611003, 24 h | strain 7611003, >40 h | strain 7701031, >40 h | strain 7702055, 24 h | strain 7702055, >40 h | strain 8709013, >40 h | strain 8904053, 24 h | strain 8904053, >40 h

OC[C@H]1O[C@H](Oc2c[nH]c3cc(Cl)ccc23)[C@H](O)[C@@H](O)[C@@H]1O [Rose-alpha-Glu, 6-chloro-3-indolyl-α-D-glucopyranoside]
R: strain 0008200, 18 h | strain 0008200, 24 h | strain 0008200, >40 h | strain 0008206, 18 h | strain 0008206, 24 h | strain 0008206, >40 h | strain 0101060, 18 h | strain 0101060, 24 h | strain 0101060, >40 h | strain 7611003, 18 h | strain 7611003, 24 h | strain 7611003, >40 h | strain 7701031, >40 h | strain 7702055, 18 h | strain 7702055, 24 h | strain 7702055, >40 h | strain 8709013, >40 h | strain 8904053, 18 h | strain 8904053, 24 h | strain 8904053, >40 h

Reference: patent publication US20070292908A1, “Method for Detecting Streptococcus Agalactiae Using Alpha-Glucosidase Activity” (BIOMERIEUX, priority 2004, published 2007)
